Results of unrelated studies side by side (data: NIAID ChemDB).

All rows: cytotoxicity tests; cell line: VERO; endpoint: CC50

CCn is the concentration with n% toxicity to the cells. Lines come from different laboratories, so protocols vary.

structure	result
O=C(NC1N=C(c2ccccc2)c2ccccc2NC1=O)c1cccnc1	3 µM
CCOC(=O)C(CCSC[C@H]1O[C@@H](n2ccc3c(N)ncnc32)[C@H](O)[C@@H]1O)NC(C)=O	100 µg/mL
CCCCCCCCC#Cc1cn(CC=C(CO)CO)c(=O)[nH]c1=O	28.8 µM
CC(C)OC(=O)C(N)CCSC[C@H]1O[C@@H](n2ccc3c(N)ncnc32)[C@H](O)[C@@H]1O	100 µg/mL
COC(=O)C(CO)N=Cc1c(O)c(O)c(C(C)C)c2cc(C)c(-c3c(C)cc4c(C(C)C)c(O)c(O)c(C=NC(CO)C(=O)OC)c4c3O)c(O)c12	1.2 µM
CCCCCC#Cc1cn(COCCO)c(=O)[nH]c1=O	39.5 µM
COc1ccc(-c2cc(=O)c3c(O)cc(O)cc3o2)cc1	20 µg/mL
CCOC(=O)c1noc(/C=C/c2ccc(-c3ccccc3)cc2)c1C(=O)c1ccccc1	111.5 µM
Nn1c(Nc2ccc(Cl)cc2)nc2sc3c(c2c1=O)CCC3	250 µg/mL
CCCCCc1ccc(-c2cc3cn(COCCO)c(=O)nc3o2)cc1	4.4 µM
CCOC(=O)C(CCSC[C@H]1O[C@@H](n2ccc3c(N)ncnc32)[C@H](O)[C@@H]1O)NC(=O)C(F)(F)F	40 µg/mL
COc1cc([C@@H]2c3cc4c(cc3[C@H](OC(C)=O)[C@@H]3COC(=O)[C@@H]23)OCO4)cc2c1OC1(N3CCCC3)CCCCC1O2	>25 µg/mL
Cc1c(-c2c(C)c(=O)c3c(C(C)C)c(=O)c(=O)c(C=O)c-3c2=O)c(O)c2c(C=O)c(O)c(O)c(C(C)C)c2c1O	0.87 µM
Nc1ncnc2ncn(COCCO)c12	496 µg/mL
Nc1nc(-c2ccc(Br)cc2)cs1	30 µg/mL
COc1c(OC)c2c3c(c(-c4c(C)cc5c(C(C)C)c(OC)c(OC)c6c5c4OC6=O)c(C)cc3c1C(C)C)OC2=O	>100 µM
CCn1cc(C(N)=O)c(=O)c2ccc(-c3cc(C)no3)cc21	>100 µg/mL
C=C1C(=O)[C@@]23CC[C@H]4C(C)(CCC[C@@]4(C)C(=O)OC)[C@@H]2CC[C@]1(O)C3	62.5 µg/mL
O=C(NC1N=C(c2ccccc2)c2ccccc2NC1=O)c1ccc(Cl)c(Cl)c1	6 µM
CCCOC(=O)C(N)CCSC[C@H]1O[C@@H](n2ccc3c(N)ncnc32)[C@H](O)[C@@H]1O	200 µg/mL
CN(C)c1ccc(-c2c3nc(c(-c4ccc(N(C)C)cc4)c4ccc([nH]4)c(-c4ccc(N(C)C)cc4)c4nc(c(-c5ccc(N(C)C)cc5)c5ccc2[nH]5)C=C4)C=C3)cc1	36.8 µM
CCOC(=O)C(CCSC[C@H]1O[C@@H](n2ccc3c(N)ncnc32)[C@H](O)[C@@H]1O)NC(=O)COC	>400 µg/mL
COC1(CO)C(=O)N(C)CC(=O)N1C	>10 µg/mL
Cc1cn([C@@H]2C[C@@H](N=[N+]=[N-])[C@H](COP(=O)(O)OC[C@H]3O[C@@H](n4cc(C)c(=O)[nH]c4=O)C[C@@H]3N=[N+]=[N-])O2)c(=O)[nH]c1=O	13.5 µM
C#Cc1c(C(N)=O)ncn1[C@@H]1O[C@H](CO)[C@@H](O)[C@H]1O	0.74 µg/mL
CN1CCN(C(=O)NC(=O)C2N=C(c3ccccc3)c3ccccc3NC2=O)CC1	25 µM
C[N+](C)=c1ccc2nc3c(ccc4ccccc43)oc-2c1.[Cl-]	0.62 µg/mL
CCn1cc(C(N)=O)c(=O)c2ccc(-c3ccccn3)cc21	>25 µg/mL
O=C1c2ccc(N3CCCCC3)cc2-n2c1nc1ccncc1c2=O	11 µg/mL
CO[C@@H]1C[C@@H](C[C@H]2CC[C@H](C)[C@H]([C@@H](C)C(=O)O)O2)O[C@]2(O[C@](C)([C@H]3CC[C@@](C)([C@@H]4O[C@@H]([C@H]5O[C@@](O)(CO)[C@H](C)C[C@@H]5C)C[C@@H]4C)O3)C[C@H]2C)[C@@H]1C	0.07 µg/mL
Cc1cn([C@H]2C[C@H](N=[N+]=[N-])[C@@H](COP(=O)(OCCC#N)OC[C@@H]3CC[C@H](n4cnc5c(N)ncnc54)O3)O2)c(=O)[nH]c1=O	≥100 µM
C/C(=N\NC(=O)c1ccncc1)c1ccc(NC(=S)Nc2ccc(C)cc2)cc1	155 µM
O=C1Nc2ccccc2C(c2ccccc2)=NC1NS(=O)(=O)c1ccccc1Br	6 µM
NC(=O)c1cn(-c2ccc(F)cc2)c2cc(-c3ccccc3)ccc2c1=O	>12.5 µg/mL
CCOC(=O)c1cc(-c2ccc(-c3ccccc3)cc2)on1	102 µM
Nc1nc2c(ncn2CCOCP(=O)(O)O)c(=O)[nH]1	7 µg/mL
O=c1[nH]cnc2c1ncn2[C@H]1CC[C@@H](CO)O1	>100 µM
CCN(CC)CCCN(C)Cc1c(-c2ccccc2)oc(-c2ccccc2)c1Cl.Cl.Cl	2 µg/mL
C/C(=N\NC(=O)c1ccncc1)c1ccc(NC(=S)Nc2ccc(F)cc2)cc1	>153.4 µM
CC(=O)Oc1c(-c2c(C)cc3c(C(C)C)c(O)c(O)c(C#N)c3c2OC(C)=O)c(C)cc2c(C(C)C)c(O)c(O)c(C#N)c12	>100 µM
O=c1[nH]c(=O)n(COCCO)cc1C#Cc1ccccc1	21.6 µM
CCOc1ccc(NC(=S)Nc2ccc(/C(C)=N/NC(=O)c3ccncc3)cc2)cc1	144 µM
CCCC(=O)c1c(O)c(CC2(C)C(=O)C(C(=O)C(C)CC)=C(O)C(C)=C2O)c(O)c(C)c1OC	≥1 µM
CC(C)OC(=O)C(CCSC[C@H]1O[C@@H](n2ccc3c(N)ncnc32)[C@H](O)[C@@H]1O)NC(=O)C(F)(F)F	200 µg/mL
CC(=O)Oc1c(OC(C)=O)c(C#N)c2c(OC(C)=O)c(-c3c(C)cc4c(C(C)C)c(OC(C)=O)c(OC(C)=O)c(C#N)c4c3OC(C)=O)c(C)cc2c1C(C)C	2.7 µM
CCN(CC)CCNc1ccc(CO)c2sc3ccccc3c(=O)c12	5.7 µg/mL
COc1ccccc1-c1c2nc(c(-c3ccccc3OC)c3ccc([nH]3)c(-c3ccccc3OC)c3nc(c(-c4ccccc4OC)c4ccc1[nH]4)C=C3)C=C2	91.5 µM
NC(=O)c1c(N)n(-c2ccc(F)cc2)c2cc(-c3ccncc3)ccc2c1=O	>100 µg/mL
OC(c1cc(-c2ccccc2)nc2ccc(Cl)cc12)C1CCCCN1	3.2 µg/mL
O=[N+]([O-])c1cn2c(n1)OCC(OCc1ccc(OC(F)(F)F)cc1)C2	>128 µM
CO[C@H]1/C=C/O[C@@]2(C)Oc3c(C)c(O)c4c(O)c(c(/C=N/Nc5ccc([N+](=O)[O-])cc5[N+](=O)[O-])c(O)c4c3C2=O)NC(=O)/C(C)=C\C=C\[C@H](C)[C@H](O)[C@@H](C)[C@@H](O)[C@@H](C)[C@H](OC(C)=O)[C@@H]1C	8 µg/mL
Nc1ncnc2c1ccn2[C@@H]1O[C@H](CSCCC(NC(=O)C(F)(F)F)C(=O)O)[C@@H](O)[C@H]1O	>400 µg/mL
Nn1c(Nc2ccccc2)nc2sc3c(c2c1=O)CCCC3	50 µg/mL
Oc1cccc(-c2c3nc(c(-c4cccc(O)c4)c4ccc([nH]4)c(-c4cccc(O)c4)c4nc(c(-c5cccc(O)c5)c5ccc2[nH]5)C=C4)C=C3)c1	3.8 µM
CCn1c2cc(C)c(C)cc2nc2cc3c(cc21)c(Cl)c(=O)c1ccccc13	>10 µg/mL
O=C1Nc2ccccc2C(c2ccccc2)=NC1NCc1ccc(C(F)(F)F)cc1	50 µM
O=[N+]([O-])c1ccc(N2CCOCC2)c2c1no[n+]2[O-]	0.11 µg/mL
CCN(CC)C(=O)NC1N=C(c2ccccc2)c2ccccc2NC1=O	4 µM
CC(C)[C@H]1C(=O)OC[C@@H](NC(=O)c2cnc3ccccc3n2)C(=O)N[C@@H](C)C(=O)N(C)[C@@H]2CSSC[C@H](C(=O)N1C)N(C)C(=O)[C@H](C)NC(=O)[C@H](NC(=O)c1cnc3ccccc3n1)COC(=O)[C@H](C(C)C)N(C)C2=O	0.4 µg/mL
Cn1cc(C(N)=O)c(=O)c2ccc(-c3ccncc3)cc21	>25 µg/mL
NC1=Nc2c(ncn2CCCCCP(=O)(O)O)C(=O)C1	>250 µM
Nc1ncnc2ncn(CCOCP(=O)(O)O)c12	246 µg/mL
COC(=O)[C@@H]1[C@H](c2cc(OC)c3nc4cc(C)c(C)cc4nc3c2)c2cc3c(cc2C2=NOC[C@@H]21)OCO3	60 µg/mL
NCCc1ccc2oc3cc(=O)c4ccccc4c-3nc2c1	2.6 µg/mL
NC(=O)c1ncn([C@@H]2O[C@H](CO)[C@@H](O)[C@H]2O)c1C#CCO	0.61 µg/mL
CC(=O)Oc1c(OC(C)=O)c2c3c(c(-c4c(C)cc5c(C(C)C)c(OC(C)=O)c(OC(C)=O)c6c5c4OC6OC(C)=O)c(C)cc3c1C(C)C)OC2OC(C)=O	4.1 µM
CCn1cc(C(N)=O)c(=O)c2ccc(-c3ccno3)cc21	>12.5 µg/mL
CCCCCCCCc1cc2cn(COCCO)c(=O)nc2o1	4.97 µM
[CH3][Sn]([CH3])([Br])[Br].c1cnc2c(c1)ccc1cccnc12	1.43 µg/mL
COc1cc([C@@H]2c3cc4c(cc3[C@H](O)[C@H]3COC(=O)[C@H]23)OCO4)cc(OC)c1OC	>20 µg/mL
C1CCNCC1.S=C(S)N1CCCCC1	13.8 µg/mL
COc1cc([C@@H]2c3cc4c(cc3[C@H](OC(C)=O)[C@@H]3COC(=O)[C@@H]23)OCO4)cc(O)c1O	>25 µg/mL
CC(C)OC(=O)c1cc(-c2cccs2)on1	>128 µM
O=C(NNC(=S)Nc1cccc(Cl)c1)c1ccncc1	>62.5 µg/mL
CCCCCCCCC#Cc1cn(COCCO)c(=O)[nH]c1=O	19.3 µM
CCn1cc(C(=O)NN)c(=O)c2ccc(-c3ccncc3)cc21	>50 µg/mL
CCCC(=O)OCc1cc(=O)n(C)c2c3c4c(cc12)c(C)cc(=O)n4CO3	1.2 µg/mL
NC1=Nc2c(ncn2CCC/C=C/P(=O)(O)O)C(=O)C1	250 µM
Cc1cn([C@H]2C[C@H](N=[N+]=[N-])[C@@H](COP(=O)(O)OC[C@@H]3CC[C@H](n4cnc5c(=O)[nH]cnc54)O3)O2)c(=O)[nH]c1=O	>100 µM
NC(=O)c1cn(-c2ccccc2)c2cc(-c3ccncc3)ccc2c1=O	>6.25 µg/mL
CCC(NC(=O)C1CCC1C(=O)[C@@H](NC(=O)[C@@H](NC(=O)c1cnccn1)C1CCCCC1)C(C)(C)C)C(=O)C(=O)NC1CC1	>100 µM
N#Cc1c(N)n[nH]c1-c1ccc(F)cc1	30 µg/mL
COc1cccc(-c2c3nc(c(-c4cccc(OC)c4)c4ccc([nH]4)c(-c4cccc(OC)c4)c4nc(c(-c5cccc(OC)c5)c5ccc2[nH]5)C=C4)C=C3)c1	>200 µM
CCCCCc1ccc(-c2cc3cn(C/C=C/C(O)CO)c(=O)nc3o2)cc1	>100 µM
O=C1Nc2c(Cl)cc(Cl)cc2C12Nc1ccccc1S2	20 µg/mL
CCCCCc1ccc(C#Cc2cn(C/C=C/C(O)CO)c(=O)[nH]c2=O)cc1	75.1 µM
Cc1cn([C@H]2C[C@H](N=[N+]=[N-])[C@@H](CO)O2)c(=O)[nH]c1=O	29 µM
CCn1cc(C(N)=O)c(=O)c2ccc(-c3ccncc3)cc21	>12.5 µg/mL
O=c1c(O)c(-c2ccccc2)oc2cc(O)cc(O)c12	15 µg/mL
COC(=O)C(N)CCSC[C@H]1O[C@@H](n2ccc3c(N)ncnc32)[C@H](O)[C@@H]1O	200 µg/mL
O=C(N/N=C/C(F)(F)F)c1ccncc1	6.4 µg/mL
Oc1ccc(-c2c3nc(c(-c4ccc(O)cc4)c4ccc([nH]4)c(-c4ccc(O)cc4)c4nc(c(-c5ccc(O)cc5)c5ccc2[nH]5)C=C4)C=C3)cc1	4.1 µM
O=C1c2ccccc2C(=O)c2sc(Nc3ccc(Cl)c(Cl)c3)nc21	3.7 µg/mL
COc1ccccc1CNC1N=C(c2ccccc2)c2ccccc2NC1=O	20 µM

The first 13 rows once more:

structure	result
O=C(NC1N=C(c2ccccc2)c2ccccc2NC1=O)c1cccnc1	3 µM
CCOC(=O)C(CCSC[C@H]1O[C@@H](n2ccc3c(N)ncnc32)[C@H](O)[C@@H]1O)NC(C)=O	100 µg/mL
CCCCCCCCC#Cc1cn(CC=C(CO)CO)c(=O)[nH]c1=O	28.8 µM
CC(C)OC(=O)C(N)CCSC[C@H]1O[C@@H](n2ccc3c(N)ncnc32)[C@H](O)[C@@H]1O	100 µg/mL
COC(=O)C(CO)N=Cc1c(O)c(O)c(C(C)C)c2cc(C)c(-c3c(C)cc4c(C(C)C)c(O)c(O)c(C=NC(CO)C(=O)OC)c4c3O)c(O)c12	1.2 µM
CCCCCC#Cc1cn(COCCO)c(=O)[nH]c1=O	39.5 µM
COc1ccc(-c2cc(=O)c3c(O)cc(O)cc3o2)cc1	20 µg/mL
CCOC(=O)c1noc(/C=C/c2ccc(-c3ccccc3)cc2)c1C(=O)c1ccccc1	111.5 µM
Nn1c(Nc2ccc(Cl)cc2)nc2sc3c(c2c1=O)CCC3	250 µg/mL
CCCCCc1ccc(-c2cc3cn(COCCO)c(=O)nc3o2)cc1	4.4 µM
CCOC(=O)C(CCSC[C@H]1O[C@@H](n2ccc3c(N)ncnc32)[C@H](O)[C@@H]1O)NC(=O)C(F)(F)F	40 µg/mL
COc1cc([C@@H]2c3cc4c(cc3[C@H](OC(C)=O)[C@@H]3COC(=O)[C@@H]23)OCO4)cc2c1OC1(N3CCCC3)CCCCC1O2	>25 µg/mL
Cc1c(-c2c(C)c(=O)c3c(C(C)C)c(=O)c(=O)c(C=O)c-3c2=O)c(O)c2c(C=O)c(O)c(O)c(C(C)C)c2c1O	0.87 µM